Structures can show the parent of a compound that is named as a salt.
The compounds below were run on NRC-03-nhCoV. Details: ratio CC50 / IC50.
Assay type: cell-based, SARS-CoV-2

Going from `CC(=O)Oc1ccccc1C(=O)O` [Acetyl Salicylic acid “Aspirin”, Acetyl Salicylic acid] to `NCC[C@H](O)C(=O)N[C@@H]1C[C@H](N)[C@@H](O[C@H]2O[C@H](CN)[C@@H](O)[C@H](O)[C@H]2O)[C@H](O)[C@H]1O[C@H]1O[C@H](CO)[C@@H](O)[C@H](N)[C@H]1O.O=S(=O)(O)O.O=S(=O)(O)O` [Amikacin sulphate], the SI rises from 103.21 to 146.10.

Going from `CC1(C)S[C@@H]2[C@H](NC(=O)[C@H](N)c3ccc(O)cc3)C(=O)N2[C@H]1C(=O)O` [Amoxicillin] to `CC1(C)S[C@@H]2[C@H](NC(=O)Cc3ccccc3)C(=O)N2[C@H]1C(=O)O.CC1(C)S[C@@H]2[C@H](NC(=O)Cc3ccccc3)C(=O)N2[C@H]1C(=O)O.c1ccc(CNCCNCc2ccccc2)cc1` [Benzathine penicillin], the SI rises from 38.12 to 46.15.

First: CCN1CCN(C(=O)N[C@@H](C(=O)N[C@@H]2C(=O)N3C(C(=O)O)=C(CSc4nnnn4C)CS[C@H]23)c2ccc(O)cc2)C(=O)C1=O [Cefoperazone]
Second: CO/N=C(\C(=O)N[C@@H]1C(=O)N2C(C(=O)O)=C(COC(C)=O)CS[C@H]12)c1csc(N)n1 [Cefotaxime]
The SI of the first is lower: 5.58 for the first, 73.85 for the second.

First: CC(C)(O/N=C(\C(=O)N[C@@H]1C(=O)N2C(C(=O)[O-])=C(C[n+]3ccccc3)CS[C@H]12)c1csc(N)n1)C(=O)O [Ceftazidime]
Second: CO/N=C(\C(=O)N[C@@H]1C(=O)N2C(C(=O)O)=C(CSc3nc(=O)c(=O)[nH]n3C)CS[C@H]12)c1csc(N)n1 [Ceftriaxone]
The SI of the first is higher: 120.37 for the first, 27.63 for the second.

Going from `Cc1ccc(-c2cc(C(F)(F)F)nn2-c2ccc(S(N)(=O)=O)cc2)cc1` [Celecoxib] to `O=C(N[C@H](CO)[C@H](O)c1ccc([N+](=O)[O-])cc1)C(Cl)Cl` [Chloramphenicol], the SI falls from 10.78 to 2.00.

Going from `CN(C)CCC(c1ccc(Cl)cc1)c1ccccn1` (stereo not drawn) [Chlorpheniramine maleate] to `CC(C)C(=O)OCC(=O)[C@@]12O[C@H](C3CCCCC3)O[C@@H]1C[C@H]1[C@@H]3CCC4=CC(=O)C=C[C@]4(C)[C@H]3[C@@H](O)C[C@@]12C` [Ciclesonide], the SI falls from 129.35 to 28.73.

Compared with `C[C@@H]1C[C@H]2[C@@H]3CCC4=CC(=O)C=C[C@]4(C)[C@@]3(F)[C@@H](O)C[C@]2(C)[C@@]1(O)C(=O)CO` [Dexamethasone], `O=C(O)Cc1ccccc1Nc1c(Cl)cccc1Cl` [Diclofenac sodium] is lower in SI: 15.51 for the first, 1.44 for the second.

Compared with `C[C@H]1c2cccc(O)c2C(=O)C2=C(O)[C@]3(O)C(=O)C(C(N)=O)=C(O)[C@@H](N(C)C)[C@@H]3[C@@H](O)[C@@H]21` [Doxycycline], `Cc1onc(-c2c(F)cccc2Cl)c1C(=O)N[C@@H]1C(=O)N2[C@@H]1SC(C)(C)[C@@H]2C(=O)O` [Flucloxacillin] is lower in SI: 124.73 for the first, 6.12 for the second.

First: CCC(=O)O[C@]1(C(=O)SCF)[C@H](C)C[C@H]2[C@@H]3C[C@H](F)C4=CC(=O)C=C[C@]4(C)[C@@]3(F)[C@@H](O)C[C@@]21C [Fluticasone Propionate]
Second: C[C@]12CCC(=O)C=C1CC[C@@H]1[C@@H]2[C@@H](O)C[C@@]2(C)[C@H]1CC[C@]2(O)C(=O)CO [Hydrocortisone]
The SI of the first is lower: 18.74 for the first, 87.10 for the second.

Compared with `CC(C)Cc1ccc(C(C)C(=O)O)cc1` (stereo not drawn) [Ibuprofen], `COc1ccc2c(c1)c(CC(=O)O)c(C)n2C(=O)c1ccc(Cl)cc1` [Indomethacin] is higher in SI: 13.14 for the first, 78.93 for the second.

Compared with `O=C(c1ccccc1)c1ccc2n1CCC2C(=O)O` (stereo not drawn) [Ketorolac Tromethamine], `C[C@H]1COc2c(N3CCN(C)CC3)c(F)cc3c(=O)c(C(=O)O)cn1c23` [Levofloxacin] is higher in SI: 13.31 for the first, 155.78 for the second.

Compared with `CC(=O)NC[C@H]1CN(c2ccc(N3CCOCC3)c(F)c2)C(=O)O1` [Linezolid], `Cc1cnc(NC(=O)C2=C(O)c3ccccc3S(=O)(=O)N2C)s1` [Meloxicam] is lower in SI: 50.1 for the first, 21.21 for the second.

Compared with `Cc1c(N(C)CS(=O)(=O)[O-])c(=O)n(-c2ccccc2)n1C.[Na+]` [Metamizole sodium], `C[C@H]1C[C@@H]2[C@H]([C@@H](O)C[C@@]3(C)[C@H]2CC[C@]3(O)C(=O)CO)[C@@]2(C)C=CC(=O)C=C12` [Methylprednisolone] is lower in SI: 63.29 for the first, 36.97 for the second.

Compared with `COc1c(N2C[C@@H]3CCCN[C@@H]3C2)c(F)cc2c(=O)c(C(=O)O)cn(C3CC3)c12` [Moxifloxacin], `c1ccc2c(CC3=NCCN3)cccc2c1` [Naphazoline] is lower in SI: 183.32 for the first, 66.82 for the second.

Compared with `O=C1CN(/N=C/c2ccc([N+](=O)[O-])o2)C(=O)N1` [Nitrofurantoin], `C[C@@H]1[C@H](O)[C@@H](C)/C=C/C=C/CC/C=C/C=C/C=C/C=C/C(O[C@H]2O[C@H](C)[C@@H](O)[C@H](N)[C@@H]2O)CC2O[C@](O)(CC(O)C(O)CCC(O)CC(O)CC(O)CC(=O)O[C@H]1C)CC(O)C2C(=O)O` (stereo partly drawn) [Nystatin] is lower in SI: 36.94 for the first, 1.14 for the second.

Compared with `CN1C(C(=O)Nc2ccccn2)=C(O)c2ccccc2S1(=O)=O` [Piroxicam], `OCc1cc(C(O)CNCCCCCCOCCCCc2ccccc2)ccc1O` (stereo not drawn) [Salmeterol] is lower in SI: 218.64 for the first, 2.73 for the second.

Work on Neomycin yielded an SI of 45.98.

With `CC(=O)Nc1ccc(O)cc1` [Paracetamol] the SI was under 1.

Same assay, conditions: selectivity index, antiviral activity relative to cellular toxicity (CC50/IC50)

First: O=C(Nc1ccc([N+](=O)[O-])cc1Cl)c1cc(Cl)ccc1O [Niclosamide]
Second: CC(=O)Oc1ccccc1C(=O)Nc1ncc([N+](=O)[O-])s1 [Nitazoxanide]
The SI of the first is higher: 1278.81 for the first, 515.62 for the second.
